Anti-infective test results gathered from many reports (values: NIAID ChemDB through PubChem).

Common to all: tests in culture; organism: HIV-1; endpoint: EC50

ECn is the concentration giving n% inhibition of infection, replication or growth. Rows are shuffled and stem from different studies. Blank or dashed fields: not listed here.

smiles,setting,method,changes,strain or isolate,cells,value
CC1(C)CC=C(c2cn(-c3nccc(C(=O)NC4CCC(N5CC6CCC(C5)O6)CC4)n3)c3ccc(F)c([C@H](OC(C)(C)C)C(=O)O)c23)CC1,,luminescence,Y143C,NL4-3,MT-4,0.0061 µM
N#Cc1ccc(S(=O)(=O)n2nc(Nc3ccc(C#N)c(Cl)c3)nc2N)c(Cl)c1,,luciferase / RT activity,Y181C/K103N,IIIB,TZM-bl,>1 µM
C=C(C)[C@@H]1CC[C@]2(C(=O)NCCCCCCCCC(=O)N[C@H](CCC(N)=O)C(=O)OC)CC[C@]3(C)[C@H](CC[C@@H]4[C@@]5(C)CC[C@H](OC(=O)CC(C)(C)C(=O)O)C(C)(C)[C@@H]5CC[C@]43C)[C@@H]12,,absorbance,V370A,NL4-3,,0.158 µM
CC(C)C1=C2[C@H]3CC[C@@H]4[C@@]5(C)CC[C@H](OC(=O)[C@H]6C[C@@H](C(=O)O)C6(C)C)C(C)(C)[C@@H]5CC[C@@]4(C)[C@]3(C)CC[C@@]2(CCNCc2ccc(O[C@@H]3CCOC3)cc2)CC1=O,,p24 / ELISA,,92HT599,MT-2,<1 µM
Cc1ccc(C)c(CS(=O)(=O)c2cccc[n+]2[O-])c1,,cytopathic effect,,RF,CEM,7.2 µg/mL
O=c1[nH]c(=O)c2ncn([C@@H]3O[C@H](CO)[C@H]3CO)c2[nH]1,,RT activity / antigen,,IIIB,MT-4,>100 µg/mL
Cc1ccc(C(C)S(=O)(=O)c2c(C)ccc[n+]2[O-])c(C)c1,,cytopathic effect,,RF,CEM,7.7 µg/mL
CC(C)C1=C2C(CC1=O)[C@@H](C(=O)NCCN(CCN(C)C)Cc1ccc(Cl)cc1)C[C@@H]1[C@@H]2CCC2C3C(CC[C@]21C)C(C)(C)C(C1=CC[C@@H](C(=O)O)CC1)=C[C@H]3C,,MTS / propidium iodide,V370A,NL4-3,MT-4,>15 µM
NS(=O)(=O)c1ccc(NC(=O)c2ccccc2S)cc1,,XTT,,,CEM,6.2 µM
Cc1cn([C@H]2C[C@H](N=[N+]=[N-])[C@@H](CO)O2)c(=O)[nH]c1=O,,p24 / ELISA / antigen,,A17,C8166,0.01613 µM
CCCCCCCC/C=C\CCCCCCCC(=O)Oc1ccc(COP(=O)(OCc2ccc(OC(=O)CCCCCCC/C=C\CCCCCCCC)cc2)OP(=O)(O)OC[C@@H]2C=C[C@H](n3cc(C)c(=O)[nH]c3=O)O2)cc1,,syncytia / microscopy,,IIIB,CEM,1.1 µM
COc1ccc(S(=O)(=O)n2cc(/C=N/NC(=O)c3ccccc3)c3ccccc32)cc1,,syncytia / visual reading,,IIIB,C8166,3.02 µg/mL
CC(C)C1=C2[C@H]3CC[C@@H]4[C@@]5(C)CC[C@H](OC(=O)[C@H]6C[C@@H](C(=O)O)C6(C)C)C(C)(C)[C@@H]5CC[C@@]4(C)[C@]3(C)CC[C@@]2([C@@H](O)CNC(=O)C(C)(CO)NC(=O)c2ccc(Cl)cc2)CC1=O,,p24 / ELISA,,92HT599,MT-2,<1 µM
O=C(Nc1ccc(O)cc1)c1ccccc1SSc1ccccc1C(=O)Nc1ccc(O)cc1,,XTT,,,CEM,>33 µM
NC(N)=NCCC[C@H](N)C(=O)NC[C@@H]1OC(O[C@H]2[C@@H](O)[C@H](O[C@@H]3[C@@H](O)[C@H](NC(=O)[C@@H](N)CCCN=C(N)N)C[C@H](NC(=O)[C@@H](N)CCCN=C(N)N)[C@H]3O[C@H]3O[C@H](CNC(=O)[C@@H](N)CCCN=C(N)N)[C@@H](O)[C@H](O)[C@H]3NC(=O)[C@@H](N)CCCN=C(N)N)O[C@@H]2CO)[C@H](NC(=O)[C@@H](N)CCCN=C(N)N)[C@@H](O)[C@@H]1O,,p24 / RT activity,,B (AZT-resistant),MT-2,5.3 µM
O=C(O)c1cc(-n2cccc2)ccc1Cl,,p24,,IIIB X4 CLADE B,MT-2,2.21 µM
C=C1CN(S(=O)(=O)c2ccc(C)cc2)CCCN(Cc2ccccc2)CCCN(S(=O)(=O)c2ccc(C)cc2)C1,,cytopathic effect,,IIIB,PBMC,0.6 µM
C/C(=N\NC(=O)c1ccccc1)c1cn(S(=O)(=O)c2cccc([N+](=O)[O-])c2)c2cc(C)ccc12,,syncytia / visual reading,,IIIB,C8166,0.31 µg/mL
CC(C)C1=C2[C@H]3CC[C@@H]4[C@@]5(C)CC[C@H](OC(=O)[C@H]6C[C@@H](C(=O)O)C6(C)C)C(C)(C)[C@@H]5CC[C@@]4(C)[C@]3(C)CC[C@@]2([C@@H](O)CNC(=O)C(F)(CCCN)NC(=O)c2ccc(Cl)cc2)CC1=O,,p24 / ELISA,,92HT599,MT-2,<1 µM
CCCCCCNc1ncnc2c1ncn2[C@H]1CC[C@@H](CO)O1,,cytopathic effect / MTT / p24,,RF,C8166,<100 µM
Cc1cn([C@H]2C[C@H](N=[N+]=[N-])[C@@H](CO)O2)c(=O)[nH]c1=O,,absorbance,,IIIB,C8166,0.017 µM
N#CCc1ccc2cccc(S(=O)(=O)n3nc(Nc4ccc(C#N)c(Cl)c4)nc3N)c2c1,,luciferase / RT activity,Y181C/K103N,IIIB,TZM-bl,>1 µM
Cc1ccc(C2CC2)c(-c2ccc3c(c2C)CCCO3)c1C(OC1CC1)C(=O)O,,ATP,,NL4-3,MT-4,0.024 µM
CC1=C(C)[C@@H](O)[C@@H]2/C=C/C[C@H](C)C[C@H](C)C(=O)c3ccc([nH]3)[C@]23C(=O)N[C@@H](Cc2c[nH]c4ccccc24)C13,,p24 / ELISA / antigen,,LAI,MT-4,0.61 µM
C/C(=N\NC(=O)c1ccccc1)c1cn(S(=O)(=O)c2ccc(Cl)cc2)c2ccc([N+](=O)[O-])cc12,,syncytia / visual reading,,IIIB,C8166,7.27 µg/mL
C/C1=C\[C@@H](C)C/C=C/[C@H]2[C@@H]3O[C@]3(C)[C@@H](C)C3[C@H](Cc4c[nH]c5ccccc45)NC(=O)[C@]32c2ccc([nH]2)C1=O,,p24 / ELISA / antigen,,LAI,MT-4,6.12 µM
Nc1ccccc1SSc1ccccc1N,,XTT,,,CEM,>53 µM
C[C@H]1C/C=C/[C@H]2[C@@H]3O[C@]3(C)[C@@H](C)C3[C@H](Cc4c[nH]c5ccccc45)NC(=O)[C@]32c2ccc([nH]2)C(=O)[C@@H](C)C1,,p24 / ELISA / antigen,,LAI,MT-4,0.31 µM
CCCCCCCCCCCC(=O)Oc1ccc(COP(=O)(OCc2ccc(OC(=O)CCCCCCCCCCC)cc2)OP(=O)(O)OC[C@@H]2C=C[C@H](n3cc(C)c(=O)[nH]c3=O)O2)cc1,,syncytia / microscopy,,IIIB,CEM,0.16 µM
C/C(=N\NC(=O)c1ccccc1)c1cn(S(=O)(=O)c2ccccc2)c2cc(C)ccc12,,syncytia / visual reading,,IIIB,C8166,0.49 µg/mL
C=C1C(=O)O[C@H]2[C@@H]1[C@H](OC(=O)C(C)C)[C@H]1[C@@](C)([C@@H](OC(C)=O)CC[C@]1(C)O)[C@H]2OC(C)=O,,absorbance,,IIIB,C8166,1.58 µM
CC[C@@H](C)[C@@H](NC(=O)c1ccccc1SSc1ccccc1C(=O)N[C@@H](C(=O)O)[C@H](C)CC)C(=O)O,,XTT,,,CEM,6.3 µM
Cc1noc(C)c1CNCC[C@@]12CC[C@]3(C)[C@H](CC[C@@H]4[C@@]5(C)CC[C@H](OC(=O)[C@H]6C[C@@H](C(=O)O)C6(C)C)C(C)(C)[C@@H]5CC[C@]43C)C1=C(C(C)C)C(=O)C2,,p24 / ELISA,,92HT599,MT-2,<1 µM
CC(C)C1=C2C(CC1=O)[C@@H](C(=O)NCCN(CCN(C)C)Cc1ccc(Cl)cc1)C[C@@H]1[C@@H]2CCC2C3C(CC[C@]21C)C(C)(C)C(C1=CC[C@H](C(=O)O)CC1)=C[C@H]3C,,MTS / propidium iodide,,NL4-3,MT-4,2.51 µM
Nc1nc2c(ncn2[C@@H]2O[C@H](CO)[C@H]2CO)c(=O)[nH]1,,RT activity / antigen,,IIIB,MT-4,7.3 µg/mL
CC1=C(C)[C@@H](O)[C@@H]2/C=C/C[C@H](C)/C=C(\C)C(=O)c3ccc([nH]3)[C@]23C(=O)N[C@@H](Cc2c[nH]c4ccccc24)C13,,p24 / ELISA / antigen,,LAI,MT-4,0.11 µM
CC(C)C1=C2[C@H]3CC[C@@H]4[C@@]5(C)CC[C@H](OC(=O)[C@H]6C[C@@H](C(=O)O)C6(C)C)C(C)(C)[C@@H]5CC[C@@]4(C)[C@]3(C)CC[C@@]2([C@@H](O)CNC(=O)C(C)(CCCN)NC(=O)c2ccc(Cl)cc2)CC1=O,,p24 / ELISA,,92HT599,MT-2,<1 µM
Cc1ccc(S(=O)(=O)n2cc(/C=N/NC(=O)c3ccccc3)c3ccccc32)cc1,,syncytia / visual reading,,IIIB,C8166,11.02 µg/mL
CC(C)=CCOc1cc(NC(=S)c2ccoc2C)ccc1Cl,,p24 / RT activity,,IIIB,MT-2,0.008 µM
Cc1nnc(-c2cccc(-c3cccc(C(=O)N4CCCCC4)c3)c2)o1,pseudotyped,luminescence,,25710,TZM-bl,>30 µM
Cc1ccc(C)c(C(C)S(=O)(=O)c2c(C)ccc[n+]2[O-])c1,,cytopathic effect,,RF,CEM,0.3 µg/mL
Cc1ccc(CNC(=O)C[C@@]23CC[C@]4(C)[C@H](CC[C@@H]5[C@@]6(C)CC[C@H](OC(=O)[C@H]7C[C@@H](C(=O)O)C7(C)C)C(C)(C)[C@@H]6CC[C@]54C)C2=C(C(C)C)C(=O)C3)cc1,,p24 / ELISA,,92HT599,MT-2,<1 µM
COC(=O)c1cccc(Cn2ccc3ccc(-c4ccc5ccn(Cc6cccc(C(=O)Oc7c(F)c(F)c(S(=O)(=O)[O-])c(F)c7F)c6)c5c4)cc32)c1.[Na+],pseudotyped,luciferase / cell fusion,,HXB2,TZM-bl,0.06 µM
CCN(CC)c1ncnc2c1ncn2[C@H]1CC[C@@H](CO)O1,,cytopathic effect / MTT / p24,,RF,C8166,<100 µM
CCCCCCCCCCCCCCCC(=O)Oc1ccc(COP(=O)(OCc2ccc(OC(=O)CCCCCCCCCCCCCCC)cc2)OP(=O)(O)OC[C@@H]2C=C[C@H](n3cc(C)c(=O)[nH]c3=O)O2)cc1,,syncytia / microscopy,,IIIB,CEM,2 µM
CC/C(=N\NC(=O)c1ccccc1)c1cn(S(=O)(=O)c2ccccc2)c2ccccc12,,syncytia / visual reading,,IIIB,C8166,14.53 µg/mL

A second listing of 4 rows from above:

smiles	setting	method	changes	strain or isolate	cells	value
CCCCCCCCCCCC(=O)Oc1ccc(COP(=O)(OCc2ccc(OC(=O)CCCCCCCCCCC)cc2)OP(=O)(O)OC[C@@H]2C=C[C@H](n3cc(C)c(=O)[nH]c3=O)O2)cc1		syncytia / microscopy		IIIB	CEM	0.16 µM
COc1ccc(S(=O)(=O)n2cc(/C=N/NC(=O)c3ccccc3)c3ccccc32)cc1		syncytia / visual reading		IIIB	C8166	3.02 µg/mL
O=c1[nH]c(=O)c2ncn([C@@H]3O[C@H](CO)[C@H]3CO)c2[nH]1		RT activity / antigen		IIIB	MT-4	>100 µg/mL
C=C1CN(S(=O)(=O)c2ccc(C)cc2)CCCN(Cc2ccccc2)CCCN(S(=O)(=O)c2ccc(C)cc2)C1		cytopathic effect		IIIB	PBMC	0.6 µM